Reference: patent publication US20190298669A1 (priority 2018, published 2019)

System: A/Mississippi/3/2001 H275Y mutant (H1N1)
Experiment: Plaque assay of virus titer in infected A549 cells, oseltamivir-resistant strain
Format: cell-based, influenza A virus
Details: MOI=0.005, 24 h, 1 μM Tamiflu

SMILES: O=C(NOCC1CC1)c1ccc(F)c(F)c1Nc1ccc(I)cc1Cl
- reduction of virus: 99.9%
